In patent US7402610B2, “Carbonyl compound containing long-chain branched alkyl group” (Idemitsu Kosan Co., Ltd., priority 2004, dated 2008):

Test system: activated sludge
Assay: Evaluation of biodegradability, JIS K6950, BOD tester
Conditions: sample concentration 100 ppm, activated sludge 30 ppm, 25° C., 28 days

Compound | Biodegradation (%)
2-octyldodecyl isostearate [Comparative Example 3, reference compound] | 39.5%
CCCCC(CC)C(=O)OC (centres unmarked) [Comparative Example 1, methyl 2-ethylhexanoate, reference compound] | 25.7%
CCCCCCCCCCC(CCCCCCCC)CC(=O)OC (centres unmarked) [Example 1, methyl 3-octyl-tridecanoate] | 52.3%
CCCCCCCCCCC(CCCCCCCC)CC(=O)O (centres unmarked) [Example 2, 3-octyl-tridecanoic acid] | 62.7%
CCCCCCCCCCC(CCCCCCCC)COC(=O)CC(CCCCCCCC)CCCCCCCCCC (centres unmarked) [Example 5, 2-octyldodecyl 3-octyl-tridecanoate] | 50.1%
